Results of unrelated studies side by side (data: NIAID ChemDB).

Common to all: toxicity to cultured cells; cell line: PBMC; endpoint: CC50

Lines come from different laboratories, so protocols vary.

smiles,method,value
CC1=CC(=O)c2c(O)ccc(-c3ccc(O)c4c3C(=O)C(C)=CC4=O)c2C1=O,,>125 µg/mL
CCCCCCCCCCCCSCC(COP(=O)([O-])OCC[N+](C)(C)C)OCCCCCCCCC(=O)OCC(=O)OC[C@H]1O[C@@H](n2cc(C)c(=O)[nH]c2=O)C[C@@H]1N=[N+]=[N-],trypan blue,>100 µM
COC(=O)N[C@H](C(=O)N[C@@H](Cc1ccccc1)[C@@H](O)CN(Cc1ccc(-c2ccccn2)cc1)NC(=O)[C@@H](NC(=O)OC)C(C)(C)C)C(C)(C)C,,50 µM
Cc1ccc(C)c(Cn2c(=O)ccn(CC#N)c2=O)c1,,>464 µM
CC[C@@]1(O)C(=O)NCc2c1cc1n(c2=O)Cc2cc3ccccc3nc2-1,XTT,>40 µM
C[C@@H]1O[C@@H](OC[C@H]2O[C@@H](Oc3c(-c4ccc(OS(=O)(=O)O)c(OS(=O)(=O)O)c4)oc4cc(OS(=O)(=O)O)cc(OS(=O)(=O)O)c4c3=O)[C@H](OS(=O)(=O)O)[C@@H](OS(=O)(=O)O)[C@@H]2OS(=O)(=O)O)[C@H](OS(=O)(=O)O)[C@H](OS(=O)(=O)O)[C@H]1OS(=O)(=O)O,,2589 µM
Cc1cc(C)cc(Cn2c(=O)ccn(CC#N)c2=O)c1,,>464 µM
Nc1ncnc2c1ncn2[C@H]1CC[C@@](F)(/C=C/P(=O)(O)O)C1,MTT,98 µM
O=C(O)[C@H]1O[C@@H](Oc2cc3oc(-c4ccccc4)cc(=O)c3c(O)c2O)[C@H](O)[C@@H](O)[C@@H]1O,,>10 µg/mL
CN(C)c1nc(N)nc2c1ncn2[C@H]1CO[C@@H](CO)O1,MTT,>100 µM
CCCC[C@H]1O[C@@H]2OC3(C)CC[C@H]4[C@H](C)CC[C@@H]([C@H]1C)C24OO3,,1.3 µM
CCc1nc2ccccn2c1C(=O)c1cccs1,MTT,>100 µM
COC(=O)C(C)CNP(=O)(OC[C@@H]1CC[C@H](n2cc(C)c(=O)[nH]c2=O)O1)Oc1ccc(Cl)cc1,,>100 µM
CC1=CC(=O)c2c(O)cccc2C1=O,,>125 µg/mL
Cc1cn([C@H]2C[C@H](N=[N+]=[N-])[C@@H](CO)O2)c(=O)[nH]c1=O,MTT,>100 µM
O=C1N(Cc2ccc(CO)cc2)[C@H](Cc2ccccc2)[C@H](O)[C@@H](O)[C@@H](Cc2ccccc2)N1Cc1ccc(CO)cc1,,77 µM
C#C[C@]1(CO)O[C@@H](n2cnc3c(N)nc(F)nc32)C[C@@H]1O,,12 µM
Cc1cn([C@H]2C[C@H](N=[N+]=[N-])[C@@H](CO)O2)c(=O)[nH]c1=O,MTT,>100 µM
COC(=O)C(C)CNP(=O)(OC[C@@H]1CC[C@H](n2cc(C)c(=O)[nH]c2=O)O1)Oc1ccc(F)cc1,,>100 µM
Cc1cn([C@H]2C[C@H](N=[N+]=[N-])[C@@H](CO)O2)c(=O)[nH]c1=O,MTS,>1 µM
Nc1ncnc2c1ncn2OCCOCP(=O)(O)O,,>100 µM
CCc1nc2sccn2c1C(=O)c1ccco1,,110 µM
Nc1nc2c(ncn2[C@H]2C=C(F)[C@@H](CO)S2)c(=O)[nH]1,MTT,>100 µM
Nc1nc2c(ncn2C2CC(CCP(=O)(O)O)(C(F)(F)F)CO2)c(=O)[nH]1,MTT,>100 µM
Cc1cn([C@H]2C[C@H](F)[C@@H](CO)O2)c(=O)[nH]c1=O,,>50 µM
C[C@H](Cn1cnc2c(N)ncnc21)OCP(=O)(O)O,MTT,>50 µM
Cc1cn([C@H]2C[C@H](N=[N+]=[N-])[C@@H](CO)O2)c(=O)[nH]c1=O,,4.24 µM
Nc1ncnc2c1ncn2[C@H]1CC[C@@H](CO)O1,,>100 µM
Cc1ccc2c(c1)nc(-c1ccc(N(C)C)cc1)n2CCc1ccccc1,MTT,>100 µM
Fc1ccccc1CCNC(=S)Nc1ccc(Br)cn1,,>100 µM
Oc1ccc(CN2CCCNCCN(Cc3ccc(CN4CCCNCCNCCCNCC4)cc3)CCCNCC2)c2cccnc12,,>10 µM
O=c1ccn(Cc2ccccc2)c(=O)n1Cc1ccccc1,,179 µM
COC(=O)C(C)CNP(=O)(OC[C@@H]1CC[C@H](n2cc(C)c(=O)[nH]c2=O)O1)Oc1ccc(Br)cc1,,>100 µM
Oc1ccc(CNCCCNCc2ccc(O)c3ncccc23)c2cccnc12,,>10 µM
Nc1nc(NC2CCC2)c2ncn([C@H]3CO[C@@H](CO)O3)c2n1,MTT,>100 µM
CN(CCc1ccc2c(n1)NCCC2)C(=O)Oc1ccc(C(F)(F)F)cc1,,4.7 µM
[O-][n+]1ccc(CC2=C[C@@]3(O)CC/C=C\CCCCN4CC[C@@H]2[C@]2(C[C@@H]5CCCCCCN5C23)C4)cc1,trypan blue,5.1 µM
Nc1ccn([C@@H]2C=C(F)[C@H](CO)S2)c(=O)n1,MTT,>100 µM
Cc1cn([C@H]2C[C@H](N=[N+]=[N-])[C@@H](CO)O2)c(=O)[nH]c1=O,,>5.016 µM
Cc1cn([C@@H]2C=C(F)[C@H](CO)S2)c(=O)[nH]c1=O,MTT,>100 µM
Cc1cn([C@H]2C=C[C@@H](CO)O2)c(=O)[nH]c1=O,,>10 µM
Cc1cn([C@@H]2C[C@@H](O)[C@H](CO)O2)c(=O)[nH]c1=O,,>200 µM
Cc1cn([C@H]2C[C@H](N=[N+]=[N-])[C@@H](CO)O2)c(=O)[nH]c1=O,,>0.37 µM
O[C@]12C=C(Cc3cc4cc(F)ccc4[nH]3)[C@@H]3CCN(CCCC/C=C\CC1)C[C@@]31C[C@@H]3CCCCCCN3C12,trypan blue,4 µM
Oc1ccc(CN2CCCNCCNCCCNCC2)c2cccnc12,,>10 µM
Nc1nc(=O)n([C@@H]2CS[C@H](CO)O2)cc1F,,>100 µM
CNc1cccc(CCNC(=O)NCc2ccc(Cl)c(Cl)c2)n1,,50 µM
O=c1[nH]cnc2c1ncn2[C@H]1CC[C@@H](CO)O1,MTT,>7.5 µM
Cc1cn([C@H]2C[C@H](N=[N+]=[N-])[C@@H](CO)O2)c(=O)[nH]c1=O,,>100 µM
COc1ccc(OC)c(CCNC(=S)Nc2ccc(Br)cn2)c1,,>100 µM
CC(=O)SCCOP(=O)(OCCSC(C)=O)OC[C@@H]1CC[C@H](n2cnc3c(N)ncnc32)O1,,1.1 µM
NC[C@H](Cl)[C@@H](O)c1csc(N)n1,,>300 µM
C[C@H](Cn1cnc2c(N)ncnc21)OCP(=O)(O)O,,27.3 µM
COC(=O)[C@H](C)NP(=O)(OC[C@H]1C/C1=C/n1cnc2c(N)nc(N)nc21)Oc1ccccc1,,13 µM
CC(=O)O[C@@]12C[C@@H](C)[C@@]3(O)[C@@H](C=C(CO)C[C@]4(O)C(=O)C(C)=C[C@@H]34)[C@@H]1C2(C)C,trypan blue,>0.25 µM
Cc1cn([C@H]2C=C[C@@H](CO)O2)c(=O)[nH]c1=O,,>100 µM
Nc1ncnc2c1ncn2[C@H]1CC[C@@](F)(CCP(=O)(O)O)C1,MTT,98 µM
Oc1ccc(CN2CCN(Cc3ccc(O)c4ncccc34)CC2)c2cccnc12,,>10 µM
C=C(C)[C@]12C[C@@H](COC(=O)c3ccccc3)[C@@]34O[C@]5(O[C@@H]1[C@@H]3[C@@H]1O[C@]1(CO)[C@@H](O)[C@@]1(O)[C@H]4[C@H]([C@H](C)[C@@H]1OC(=O)c1ccccc1)[C@H](C)CCCCCC[C@H]5O)O2,luminescence,>2.5 µM
Cc1cn([C@@H]2C[C@@H](N=[N+]=[N-])[C@H](COP(=O)(O)OC[C@H]3O[C@@H](n4cc(C)c(=O)[nH]c4=O)C[C@@H]3N=[N+]=[N-])O2)c(=O)[nH]c1=O,,16.5 µM
CC1=C(C2=C(C)C(=O)c3cccc(O)c3C2=O)C(=O)c2c(O)cccc2C1=O,,>125 µg/mL
Nc1nc(=O)n([C@H]2C=C(F)[C@@H](CO)S2)cc1F,MTT,>100 µM
Cc1cn([C@H]2C[C@H](N=[N+]=[N-])[C@@H](COP(=O)(O)OC[C@H]3CC[C@@H](n4cnc5c(N)ncnc54)O3)O2)c(=O)[nH]c1=O,,>100 µM
CC(C)(C)c1ccc(C(Cn2cccc(C(F)(F)F)c2=O)NC2Cc3ccccc3C2)cc1,,17 µM
C[C@@H]1CC[C@H]2[C@@H](C)CCO[C@@H]3OC4(C)CC[C@@H]1C32OO4,,>100 µM
Cc1c(-c2cnccn2)ssc1=S,,55.6 µM
c1cc(CN2CCCNCCNCCCNCC2)ccc1CN1CCCNCCNCCCNCC1,,>10 µM
Nc1nc2c(ncn2C2CC(/C=C/P(=O)(O)O)(C(F)(F)F)CO2)c(=O)[nH]1,MTT,>100 µM
Nc1nc2c(ncn2[C@@H]2C=C(F)[C@H](CO)S2)c(=O)[nH]1,MTT,>100 µM
Cc1cc(C)cc(Cn2c(=S)ccn(CC#N)c2=O)c1,,>438 µM
O[C@]12C=C(Cc3cccc4cnccc34)[C@@H]3CCN(CCCC/C=C\CC1)C[C@@]31C[C@@H]3CCCCCCN3C12,trypan blue,4.2 µM

Repeating the final 8 entries:

| smiles | method | value |
|---|---|---|
| CC(C)(C)c1ccc(C(Cn2cccc(C(F)(F)F)c2=O)NC2Cc3ccccc3C2)cc1 |  | 17 µM |
| C[C@@H]1CC[C@H]2[C@@H](C)CCO[C@@H]3OC4(C)CC[C@@H]1C32OO4 |  | >100 µM |
| Cc1c(-c2cnccn2)ssc1=S |  | 55.6 µM |
| c1cc(CN2CCCNCCNCCCNCC2)ccc1CN1CCCNCCNCCCNCC1 |  | >10 µM |
| Nc1nc2c(ncn2C2CC(/C=C/P(=O)(O)O)(C(F)(F)F)CO2)c(=O)[nH]1 | MTT | >100 µM |
| Nc1nc2c(ncn2[C@@H]2C=C(F)[C@H](CO)S2)c(=O)[nH]1 | MTT | >100 µM |
| Cc1cc(C)cc(Cn2c(=S)ccn(CC#N)c2=O)c1 |  | >438 µM |
| O[C@]12C=C(Cc3cccc4cnccc34)[C@@H]3CCN(CCCC/C=C\CC1)C[C@@]31C[C@@H]3CCCCCCN3C12 | trypan blue | 4.2 µM |

An empty or dashed field is not shown. CCn is the concentration with n% toxicity to the cells.